For one substance, Kd and koff results are on record in PMC9646764.

pKd: −log10 of the molar value.

The target in experiment [1] is Cattle TFPI-Fc (cattle). In words: BLI. The conditions noted are these: domain or fragment.
Experiment [2] has as its target Dog TFPI-Fc (dog). Kind of experiment: BLI. The note with it: domain or fragment.

Consider TcdB2.11_(1286-1805), for which, in experiment [1], the pKd – broadly, the negative decadic logarithm of the Kd, by convention in mol/L – was 6.51 and the dissociation rate constant (koff) (usually the first-order rate constant of dissociation) was found to be 0.024 s⁻¹. In experiment [2], this substance showed a pKd of 7.68 and a koff of 0.00119 s⁻¹.
